The source of these data is paper PMC5559549.

Tags and fusion partners may be left off the protein sequences shown.

For the data set, the target named is T1, OmpR-His6 (OmpR-P) (UniProt P74982).
T1 sequence (looked up): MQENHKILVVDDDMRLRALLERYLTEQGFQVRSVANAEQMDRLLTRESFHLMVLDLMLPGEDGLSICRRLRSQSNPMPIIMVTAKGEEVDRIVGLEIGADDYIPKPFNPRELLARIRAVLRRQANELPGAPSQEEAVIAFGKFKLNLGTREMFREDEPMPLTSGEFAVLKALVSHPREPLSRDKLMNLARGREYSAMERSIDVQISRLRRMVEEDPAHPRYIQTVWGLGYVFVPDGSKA
The data set is described as follows: EMSA. The conditions noted are these: OmpR phosphorylated (acetyl phosphate), EMSA with 0-0.667 uM OmpR-P, 5% native polyacrylamide gel, ethidium bromide stain, pH and temperature not given (as in Nieckarz et al., 2016), recombinant protein, residues 1-239, protein details: His6, probe letters rebuilt from the primers and the genome.

Regarding “ACCTATTTCCCGTTCTTCACCCAATGCTTGTAAGATGCCAAAAACTTTCAGAACCGACGAAACAGAGTCGGGCTGTTTATCTAAATCTGCAATAGCCATTTTTTGGTTACCCTACTCAGTTTTCTGTGTTTCATAAAACAATTTGTTTTAAAAAAAATAGAACAGTGGTTTTATTATAAAGGGAAGTCGCGAGACTGTGCAATAAACCAATGTGAATAATCGGATAAAAGCCTTGCAGACAGCAAATTAGCCTCTTTCCATGAAAGAGGCTAGTGCAAAATTCAACTATTTCCAGACTGATTCAGGCAATGTGGCTAAATATAGTGCTGGTTTACCGTGAACATCAGAGGTAAAGAGGATTTGCTTATCATCGGGTGTAAAGGATGGATGTGGATGTGTTACCTGGCGGTCACCTTCAAACACCTTCCATGAGGTGTCGTG (double strand) [kdgR promoter fragment]”, the binding result (shift at 0.333 uM, slightly lower affinity than kdgM1 and kdgM2) was “binds”.
Turning to “ACTCTAGATGTGTTAGCTTCCCTCACTGGACCCGAATTGCTAACTTGATTTGTGCTTAATCACTGGGCTTTAGTCGAATATCAGTATTTTCATCTAAATAGGAACGACCCAAATATTATCCTCTCCTATATTAAATAAAAATAGATTTTAATCTAAAATACCCACTTCGCCATACTTTGGTGTGTATTGATTGCCAAATTATCCTCTGCGAAAATAACGTTATTATATAAAAGTGATTAAAACCAACAATAATACCGAAAAGAAAATATTCGACTGACATCTATTTTATTTATTCAGCCACATATACAATATTAACACCTACCGAGTCAAGACTATTTAATTCGAAGATGATCCCCTTCGAAATAGTCCCTATCCCTTGCTATCTCTAGGCTAGAACAAAAAACTTACAGTGCCAGTGCATTAGTCAAAACTATTTACTTTGAACCTTGTCACATAAATGGATATTGGCTCTATTAATTTCTAACTATTAGTCATGGATCTCGGAACTCCCGGGGT (double strand) [kdgM2-pelP-sghX promoter fragment]”, the binding result (shift clear at 0.167 uM) is listed as “binds”.
Regarding “TGTCTAGAATCCTTCTGTTGCCGGTTTAAATATGGCTCTGGAATTGCCACATAAAATGACAACCTCACCATACTTTGATGACCCGCAAATTGTTTCACTGTTCGGTGATGCAATTCAATATATCGATTATGGCCAGAAGACCGTGCAAGAAACTGCAGAATACTTTAACAAACAAGGTGATCGTATTCTGAAACGCGCTATGCGTTAATAAATTAATTTAACTTAAGTATCTATTAAACCCTGCCATTAATTTGGCGGGGTTCTTTTGTTTTATAGCCATAAAATAATAACCAACCAGACAGACATCACAATTTAATATCTGTTTAAAAAAAGAATCATTAAGACAGATCTGGATCACATAAATATTTAATAATATAAATAGAATATGTATTCACAATAAATGAAACATTGTTTCTTTGTTGTCGGAATTGTTTTTCACTCGTGTGTTGATTTTTTATAGATTTGTTAATGACTTTTGATTTAAATAACCATAACCCTGGGATTATATAAAAATGAAATTTAAATTACTGACTCTGGCAGTGGCATCTGTAACCCGGGCA (double strand) [kdgM1 promoter fragment]”, under “shift clear at 0.167 uM”, the binding result was “binds”.
